The text below walks through data of PMC5754140, “Two classes of protective antibodies against Pseudorabies virus variant glycoprotein B: Implications for vaccine design” (2017).

Assay [1] has as its target PRV gB ectodomain, soluble (residues A59 to N752, strain HN1201) (Pseudorabies virus (strain HN1201)). Nature of the assay: SEC. On the technique in general: SEC sorts molecules by how far they enter the pores of the column.
Assay [2] has the same target. Nature of the assay: crystal structure.

What is called stoichiometry N is the number of molecules, sites or subunits per partner or assembly. In the case of “PRV gB ectodomain, soluble (residues A59 to N752, strain HN1201) (domain or fragment)”, the stoichiometry N in assay [1] and in assay [2] was 3 each time.
